Experimental data from patent US20240239861A1, “GLUCAGON-RECEPTOR SELECTIVE POLYPEPTIDES AND METHODS OF USE THEREOF” (i2O Therapeutics, Inc., priority 2016, published 2024).

Test: Body weight change in DIO Long Evans rats after 13 days continuous dosing by osmotic pump

CC(C)C[C@H](NC(=O)[C@H](Cc1ccc(O)cc1)NC(=O)[C@H](CCCCN)NC(=O)[C@H](CO)NC(=O)[C@H](Cc1ccc(O)cc1)NC(=O)[C@H](CC(=O)O)NC(=O)[C@H](CO)NC(=O)[C@@H](NC(=O)[C@H](Cc1ccccc1)NC(=O)[C@@H](NC(=O)CNC(=O)[C@H](CCC(N)=O)NC(=O)[C@H](CO)NC(=O)[C@@H](N)Cc1ccc(O)cc1)[C@@H](C)O)[C@@H](C)O)C(=O)N[C@@H](CC(=O)O)C(=O)N[C@@H](C)C(=O)N[C@@H](C)C(=O)N[C@@H](CCCNC(=N)N)C(=O)N[C@@H](C)C(=O)N[C@@H](CCC(N)=O)C(=O)N[C@@H](CCC(=O)O)C(=O)N[C@@H](Cc1ccccc1)C(=O)N[C@H](C(=O)N[C@@H](CCCCN)C(=O)N[C@@H](Cc1c[nH]c2ccccc12)C(=O)N[C@@H](CC(C)C)C(=O)N[C@@H](CCC(=O)O)C(=O)N[C@@H](CC(=O)O)C(=O)N[C@@H](CCC(=O)O)C(=O)N1CCC[C@H]1C(=O)N[C@@H](CCCCN)C(=O)N[C@@H](CO)C(=O)N[C@@H](CCCCN)C(=O)N[C@@H](CO)C(=O)N1CCC[C@H]1C(=O)N1CCC[C@H]1C(=O)N1CCC[C@H]1C(=O)N[C@@H](CO)C(N)=O)C(C)C [Compound A3] (H-YSQGTFTSDYSKYLDAARAQEFVKWLEDEPKSKSPPPS-NH2; N-terminus assumed)
Hill slope of weight loss dose response (shared fit (FIG. 9)): −1.12

CC(C)C[C@H](NC(=O)[C@H](Cc1ccc(O)cc1)NC(=O)[C@H](CCCCN)NC(=O)[C@H](CO)NC(=O)[C@H](Cc1ccc(O)cc1)NC(=O)[C@H](CC(=O)O)NC(=O)[C@H](CO)NC(=O)[C@@H](NC(=O)[C@H](Cc1ccccc1)NC(=O)[C@@H](NC(=O)CNC(=O)[C@H](Cc1c[nH]cn1)NC(=O)[C@H](CO)NC(=O)[C@@H](N)Cc1ccc(O)cc1)[C@@H](C)O)[C@@H](C)O)C(=O)N[C@@H](CC(=O)O)C(=O)NC(C)(C)C(=O)N[C@@H](CCCCN)C(=O)N[C@@H](CO)C(=O)N[C@@H](C)C(=O)N[C@@H](CCC(N)=O)C(=O)N[C@@H](CCC(=O)O)C(=O)N[C@@H](Cc1ccccc1)C(=O)N[C@H](C(=O)NC(C)(C)C(=O)N[C@@H](Cc1c[nH]c2ccccc12)C(=O)N[C@@H](CC(C)C)C(=O)N[C@@H](CCC(=O)O)C(=O)N[C@@H](CC(=O)O)C(=O)N[C@@H](CCC(=O)O)C(=O)N1CCC[C@H]1C(=O)N[C@@H](CO)C(=O)N[C@@H](CO)C(=O)NCC(=O)N[C@@H](C)C(=O)N1CCC[C@H]1C(=O)N1CCC[C@H]1C(=O)N1CCC[C@H]1C(=O)N[C@@H](CO)C(=O)O)C(C)C [Compound A2]
Hill slope of weight loss dose response (shared fit (FIG. 9)): −1.25

CC(C)C[C@H](NC(=O)[C@H](Cc1ccc(O)cc1)NC(=O)[C@H](CCCCN)NC(=O)[C@H](CO)NC(=O)[C@H](Cc1ccc(O)cc1)NC(=O)[C@H](CC(=O)O)NC(=O)[C@H](CO)NC(=O)[C@@H](NC(=O)[C@H](Cc1ccccc1)NC(=O)[C@@H](NC(=O)CNC(=O)[C@H](Cc1c[nH]cn1)NC(=O)[C@H](CO)NC(=O)[C@@H](N)Cc1ccc(O)cc1)[C@@H](C)O)[C@@H](C)O)C(=O)N[C@@H](CC(=O)O)C(=O)NC(C)(C)C(=O)N[C@@H](CCCCN)C(=O)N[C@@H](Cc1ccc(O)cc1)C(=O)N[C@@H](C)C(=O)N[C@@H](CCC(N)=O)C(=O)N[C@@H](CCC(=O)O)C(=O)N[C@@H](Cc1ccccc1)C(=O)N[C@H](C(=O)NC(C)(C)C(=O)N[C@@H](Cc1c[nH]c2ccccc12)C(=O)N[C@@H](CC(C)C)C(=O)N[C@@H](CCC(=O)O)C(=O)N[C@@H](CC(=O)O)C(=O)N[C@@H](CCC(=O)O)C(=O)N1CCC[C@H]1C(=O)N[C@@H](CO)C(=O)N[C@@H](CO)C(=O)NCC(=O)N[C@@H](C)C(=O)N1CCC[C@H]1C(=O)N1CCC[C@H]1C(=O)N1CCC[C@H]1C(=O)N[C@@H](CO)C(=O)O)C(C)C [Compound A1] (H-YSHGTFTSDYSKYLD[Aib]KYAQEFV[Aib]WLEDEPSSGAPPPS-OH; N-terminus assumed)
Hill slope of weight loss dose response (fit of each agent (FIG. 8)): −1.26
Hill slope of weight loss dose response (shared fit (FIG. 9)): −1.43

Where a SMILES comes first, the peptide text is derived from it. [ ]: non-standard residue; d: D form. Aib = CC(C)(N)C(=O)O
